# Laboratory results reported in US4767621A (priority 1982, dated 1988).
# System: human T lymphoblastoid cells of the CEM line bearing the antigen T-65
# Conditions: for potentiating effect (factor) on the cytotoxicity of immunotoxin anti-T-65: NH4+ 10 mM, monensin 50 nM, nigericin 10 nM, grisorixin 50 nM, lasalocide 1 μM
Substance,potentiating effect (factor) on the cytotoxicity of immunotoxin anti-T-65,"spontaneous cytotoxicity of the ionophore for the cells employed (monensin and grisorixin 50 nanomolar, nigericin 10 nanomolar, lasalocide 1 micromolar, ionophore alone)"
ammonium chloride,7000,
grisorixin,27000,not spontaneously cytotoxic
